Measured values from several laboratories, pooled; numbers as filed in NIAID ChemDB.

Shared fields: growth or infection tests; species: Mycobacterium smegmatis; measure: MIC

a–b is a range or a potency band. Lines come from different laboratories, so protocols vary. An empty or dashed field is not shown.

SMILES | strain or isolate | mutations | read by | value
O=C1c2ccccc2C(=O)c2cc(C[P+](c3ccccc3)(c3ccccc3)c3ccccc3)ccc21 |  |  |  | 2.5 µg/mL
C=CCc1ccccc1/C=C1\COc2cc(O)ccc2C1=O | mc2155 |  |  | 500 µg/mL
COC1=Cc2ccnc3ccnc(c23)C1=O | mc2155 |  | MTT / low oxygen / turbidity | 6.25 µg/mL
CC[n+]1c(-c2ccccc2)c2cc(N)ccc2c2ccc(N)cc21 | mc2155 |  |  | 8 µg/mL
CCN1CCN(c2nc3c(cc2F)c(=O)c(C(=O)O)cn3-c2ccc(F)cc2F)CC1 | ATCC 19420 |  |  | 0.5 µg/mL
NC(=O)c1c(NC(=O)C2CC2)sc2cc(O)c(Br)cc12 | mc2155 |  | resazurin / absorbance | >100 µM
Cc1c2cc[n+](C)cc2c(C)c2c1[nH]c1ccc(Cl)cc12 |  |  | resazurin / fluorescence | 1 µg/mL
[O-]c1ccccc1CNCCCCCCNCCCCCCCCNCCCCCCNCc1ccccc1[O-] | mc2155 |  |  | 12.5 µM
CCCCCCCCCCCCCCCC[N+](C)(C)CC | PSB51 LFR |  |  | 16 µg/mL
Cc1nc(-c2ccccc2)sc1-c1csc(-c2cccc(Cl)c2)n1 |  |  | absorbance | 69.02 µM
CN=C1C=Nc2c(O)c(OC)cc3ccnc1c23 | mc2155 |  | MTT / low oxygen / turbidity | 1.5 µg/mL
O=C(CSc1nnc2scc(-c3ccccc3)n12)Nc1ccc(N2CCCC2)cc1 |  |  | absorbance | 410.7 µM
CC(C)c1c(O)cc([C@H](N=C(N)N)C(=O)NCC(=O)O)cc1O | mc2155 |  | visual reading | 20 µg/mL
Cc1nc(-c2ccccc2)sc1-c1csc(-c2ccc(Cl)cc2)n1 |  |  | absorbance | 81.88 µM
CCN1CCN(c2c(F)cc3c(=O)c(C(=O)O)cn(-c4ccc(F)cc4F)c3c2OC)CC1 | ATCC 19420 |  |  | 2 µg/mL
Cc1c(CN2CCOCC2)cc(-c2ccc(Cl)cc2)n1Cc1ccccc1 | 103599 |  |  | >64 µg/mL
CNCC1CCN(c2nc3c(cc2F)c(=O)c(C(=O)O)cn3-c2ccc(F)cc2F)C1 | ATCC 19420 |  |  | 0.5 µg/mL
O=C(O)c1cn(C2CC2)c2cc(N3CCNCC3)c(F)cc2c1=O | ATCC 14468 |  |  | 0.08 µg/mL
Cc1nc(-c2ccc(F)cc2)sc1-c1csc(Cc2ccc(F)cc2)n1 |  |  | absorbance | 30.38 µM
COc1c(N2CCNCC2)c(F)cc2c(=O)c(C(=O)O)cn(C3CC3)c12 | ATCC 19420 |  |  | 0.13 µg/mL
Cc1onc(-c2ccccc2)c1C(=O)N[C@@H]1C(=O)N2[C@@H]1SC(C)(C)[C@@H]2C(=O)O | mc2155 |  | resazurin | 256 µg/mL
S=C(S)N1CCCC1 | mc2155 |  |  | >100 µM
COC1=Cc2ccnc3ccnc(c23)C1(OC)OC | mc2155 |  | MTT / low oxygen / turbidity | 100 µg/mL
C=C(NC(=O)C(=C)NC(=O)c1csc(C2=NC3CC4(C2)NC(=O)C(C)NC(=O)C(=C)NC(=O)C(=C)NC(=O)C(C(C)C)NC2C=Cc5c(C(C)O)cc(nc5C2O)C(=O)OC(C)C(NC(=O)c2csc(n2)C(C(C)(O)C(C)O)NC(=O)C2CSC(=N2)/C(=C\C)NC(=O)C(C(C)O)NC(=O)c2csc4n2)c2nc3cs2)n1)C(N)=O | mc2155 |  |  | 1.56 µM
NC1CCN(c2nc3c(cc2F)c(=O)c(C(=O)O)cn3-c2ccc(F)cc2F)C1 | ATCC 19420 |  |  | 0.13 µg/mL
Cc1nc(-c2ccc(F)cc2)sc1-c1csc(-c2ccccc2)n1 |  |  | absorbance | >100 µM
CCCCCCn1c(C)cc(CN2CCN(C)CC2)c1C | 103599 |  |  | 16 µg/mL
N#Cc1cccc2oc3ccccc3c(=O)c12 | ATCC 607 |  |  | >32 µg/mL
C[C@H]1COC2(CCN(C3=NC(=O)c4cc(C(F)(F)F)cc([N+](=O)[O-])c4S3(=O)=O)CC2)O1 | mc2155 |  | broth dilution / turbidity | >0.5 µg/mL
CC(CC(=O)N(C)O)CP(=O)(O)O | ATCC 700084 |  | broth dilution / turbidity | >250 µM
CC(C)=CCc1cc(/C=C/C(=O)c2cc(CC=C(C)C)c(O)cc2O)ccc1O | ATCC 700084 |  |  | >39.06 µg/mL
CC[C@@H](C(=O)[C@@H](C)[C@@H](O)[C@H](C)[C@@H]1O[C@@H]([C@@H](CC)C(=O)O)CC[C@@H]1C)[C@H]1O[C@@]2(C=C[C@@H](O)[C@@]3(CC[C@@](C)([C@H]4CC[C@](O)(CC)[C@H](C)O4)O3)O2)[C@H](C)C[C@@H]1C | mc2155 | G457A | resazurin | 2.5 µg/mL
CC(C)=CCC/C(C)=C/CC/C(C)=C/CO | mc2 155 / ATCC 700084 |  | broth dilution | 64 µg/mL
Ic1ccc2c(c1)N(c1ccccc1)c1cc(Nc3ccc4nc5ccc(I)cc5[n+](-c5ccccc5)c4c3)ccc1N2 | mc2155 |  |  | >100 µM
NNC(=O)c1ccncc1 |  |  | resazurin | >100 µM
O=C(CCCCCCCCCCCCCCCCCNCC(=O)N1CCOP(O)(=S)OCC1)N1CCOP(O)(=S)OCC1 |  |  |  | 7.8 µM
CCCCCCn1c(C)c(CN2CCOCC2)c(CN2CCOCC2)c1-c1ccc(Cl)cc1 | 103599 |  |  | >64 µg/mL
NCC[C@H](O)C(=O)N[C@@H]1C[C@H](N)[C@@H](O[C@H]2O[C@H](CN)[C@@H](O)[C@H](O)[C@H]2O)[C@H](O)[C@H]1O[C@H]1O[C@H](CO)[C@@H](O)[C@H](N)[C@H]1O | A28315 |  |  | 0.25 µg/mL
COc1ccc(-n2cc(/C=C/c3nc4sccn4c(=O)c3-c3ccc(C#N)cc3)c(-c3ccccc3)n2)cc1 | mc2155 |  | colony count | 620 µg/mL
CNCC1CCN(c2c(F)cc3c(=O)c(C(=O)O)cn(C4CC4)c3c2OC)C1 | ATCC 19420 |  |  | 0.06 µg/mL
COc1cccc(-c2nn(-c3ccccc3)cc2/C=C/c2nc3sccn3c(=O)c2-c2ccc(C(F)(F)F)cc2)c1 | mc2155 |  | colony count | 47 µg/mL
CC1OC(CC(=O)O)CC2=C1C(=O)c1c(O)cccc1C2=O | mc2155 |  |  | >100 µM
COc1ccccc1-c1nn(-c2ccccc2)cc1/C=C/c1nc2sccn2c(=O)c1-c1ccc(C#N)cc1 | mc2155 |  | colony count | 58 µg/mL
CN[C@@H]1[C@@H](O)[C@@H](O[C@@H]2[C@@H](O)[C@H](O[C@H]3O[C@H](CN)CC[C@H]3N)[C@@H](N)C[C@H]2N)OC[C@]1(C)O | ATCC 607 |  |  | >32 µg/mL
Nc1ccccc1O.O.O=C(O)C1[O][Sb][O]C1C(=O)O | mc2155 |  |  | 50 µM
CCOc1c(N2CCC(N)C2)c(F)cc2c(=O)c(C(=O)O)cn(C3CC3)c12 | ATCC 19420 |  |  | 0.13 µg/mL
COc1cc(O)cc(/C=C/c2cc3ccccc3s2)c1 |  |  | broth dilution | 32 µg/mL
C=C[C@]1(C)C=C2C(=O)c3c(NC=O)cccc3C(C)(C)[C@H]2C[C@H]1O |  |  |  | >100 µM
O=C(O)c1cc([N+](=O)[O-])c2oc3ccc([N+](=O)[O-])cc3c(=O)c2c1 | ATCC 607 |  |  | >32 µg/mL
CNCC1CCN(c2c(F)cc3c(=O)c(C(=O)O)cn(C4CC4)c3c2C(F)(F)F)C1 | ATCC 19420 |  |  | 4 µg/mL
CO[C@H]1/C=C/O[C@@]2(C)Oc3c(C)c(O)c4c(O)c(c(/C=N/N5CCN(C)CC5)c(O)c4c3C2=O)NC(=O)/C(C)=C\C=C\[C@H](C)[C@H](O)[C@@H](C)[C@@H](O)[C@@H](C)[C@H](OC(C)=O)[C@@H]1C |  |  | resazurin / fluorescence | 0.78–1.56 µg/mL
NCCCCNCCCN | mc2155 |  | visual reading | >500 µg/mL
CNCC1CCN(c2nc3c(cc2F)c(=O)c(C(=O)O)cn3C(C)(C)C)C1 | ATCC 19420 |  |  | 0.13 µg/mL
CC1CN(C(=O)CCCCCCCCCCCCCCCCCNCC(=O)N2CC(C)OP(=O)(O)OC(C)C2)CC(C)OP(=O)(O)O1 |  |  |  | 15.6 µM
N#Cc1ccc(-c2c(/C=C/c3cn(-c4ccc(Cl)cc4)nc3-c3ccccc3)nc3sccn3c2=O)cc1 | mc2155 |  | colony count | 21 µg/mL
CO[C@H]1/C=C/O[C@@]2(C)Oc3c(C)c(O)c4c(O)c(c(/C=N/N5CCN(C)CC5)c(O)c4c3C2=O)NC(=O)/C(C)=C\C=C\[C@H](C)[C@H](O)[C@@H](C)[C@@H](O)[C@@H](C)[C@H](OC(C)=O)[C@@H]1C | Rifampicin-resistant |  | broth dilution / visual reading | 500 µg/mL
O=C(O)c1cccc2oc3ccccc3c(=O)c12 | ATCC 607 |  |  | >32 µg/mL
Cc1ccc(-c2nc(C)c(-c3csc(-c4ccc(Br)cc4)n3)s2)cc1 |  |  | absorbance | 80.81 µM
Cc1ccc(-c2nn(-c3ccccc3)cc2/C=C/c2nc3sccn3c(=O)c2-c2ccc(C(F)(F)F)cc2)cc1 | mc2155 |  | colony count | 87 µg/mL
Cc1cc(N)cc2c(=O)c3ccccc3oc12 | ATCC 607 |  |  | >32 µg/mL

Repeating the first 8 entries:

SMILES,strain or isolate,mutations,read by,value
O=C1c2ccccc2C(=O)c2cc(C[P+](c3ccccc3)(c3ccccc3)c3ccccc3)ccc21,,,,2.5 µg/mL
C=CCc1ccccc1/C=C1\COc2cc(O)ccc2C1=O,mc2155,,,500 µg/mL
COC1=Cc2ccnc3ccnc(c23)C1=O,mc2155,,MTT / low oxygen / turbidity,6.25 µg/mL
CC[n+]1c(-c2ccccc2)c2cc(N)ccc2c2ccc(N)cc21,mc2155,,,8 µg/mL
CCN1CCN(c2nc3c(cc2F)c(=O)c(C(=O)O)cn3-c2ccc(F)cc2F)CC1,ATCC 19420,,,0.5 µg/mL
NC(=O)c1c(NC(=O)C2CC2)sc2cc(O)c(Br)cc12,mc2155,,resazurin / absorbance,>100 µM
Cc1c2cc[n+](C)cc2c(C)c2c1[nH]c1ccc(Cl)cc12,,,resazurin / fluorescence,1 µg/mL
[O-]c1ccccc1CNCCCCCCNCCCCCCCCNCCCCCCNCc1ccccc1[O-],mc2155,,,12.5 µM